PubChem BioAssay AID1259414, Drosophila RNAi Screening Center | 2018
In all, the deposit lists about 24,000 reagents; below is an unselected part of those with a known target gene and a result. Of all reagents, about 1,210 (5%) were called active. 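Inactive calls also include excluded dsRNAs with several or no targets, genes unexpressed in JW18, and well A1, regardless of score.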 A number with no mark means an inactive call. No sequences are given here.

- Test: 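Fly genes that alter Wolbachia amount inside host cells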 (primary screen)
- System: Drosophila JW18 cells infected with Wolbachia
- Reagent: long dsRNA against Drosophila genes, 0.25 µg dsRNA per well of a 384-well plate
- Time to read-out: 5 days
- Challenge: cells persistently infected with Wolbachia before knock-down; no added drug
- Detection: 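Imaged fluorescence in situ signal for Wolbachia 23S rRNA per DAPI-counted host cell, given as a robust z-score within each plate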
- Reading the numbers: Wolbachia per cell robust z: higher = more Wolbachia per host cell than the plate typical
- Call rule: 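Active if absolute robust z reaches 1.5 in two or more of three replicates, leaving out multi- or no-target dsRNAs, genes unexpressed in JW18 and A1 wells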

Which result is listed for CG8229 [DRSC07114]?
Wolbachia per cell robust z, rep 1: 0.495; Wolbachia per cell robust z, rep 2: 0.528; Wolbachia per cell robust z, rep 3: 0.727

For CG8229 [DRSC27067], how do the results read?
Wolbachia per cell robust z, rep 1: -0.894; Wolbachia per cell robust z, rep 2: -0.667; Wolbachia per cell robust z, rep 3: -2.01

With CG14852 [DRSC14976], what was measured?
Wolbachia per cell robust z, rep 1: 0.874; Wolbachia per cell robust z, rep 2: -0.34; Wolbachia per cell robust z, rep 3: 0.83

What did the screen give for CG14852 [DRSC23844]?
Wolbachia per cell robust z, rep 1: 2.72; Wolbachia per cell robust z, rep 2: -0.0234; Wolbachia per cell robust z, rep 3: 1.21

For CG1371 [DRSC06409], how do the results read?
Wolbachia per cell robust z, rep 1: -0.999; Wolbachia per cell robust z, rep 2: -0.179; Wolbachia per cell robust z, rep 3: -1.16

With CG13751 [DRSC06422], what does the deposit list?
Wolbachia per cell robust z, rep 1: -2.04 (active); Wolbachia per cell robust z, rep 2: -1.91; Wolbachia per cell robust z, rep 3: -0.314

With E(spl)mgamma-HLH [DRSC16699], what does the deposit list?
Wolbachia per cell robust z, rep 1: 1.16; Wolbachia per cell robust z, rep 2: 0.849; Wolbachia per cell robust z, rep 3: -3.55

With E(spl)mgamma-HLH [DRSC25532], what was measured?
Wolbachia per cell robust z, rep 1: 0.276; Wolbachia per cell robust z, rep 2: 0.283; Wolbachia per cell robust z, rep 3: -0.0816

How did the screen score spok [DRSC37788]?
Wolbachia per cell robust z, rep 1: -6.1; Wolbachia per cell robust z, rep 2: -6.24; Wolbachia per cell robust z, rep 3: -0.0915

Which result is listed for Cnep1r1 [DRSC38789]?
Wolbachia per cell robust z, rep 1: 0.971; Wolbachia per cell robust z, rep 2: 1.51; Wolbachia per cell robust z, rep 3: 1.11

How did the screen score CG3719 [DRSC18493]?
Wolbachia per cell robust z, rep 1: -0.635; Wolbachia per cell robust z, rep 2: -1.38; Wolbachia per cell robust z, rep 3: 0.846

What is on record for eIF3g2 [DRSC14275]?
Wolbachia per cell robust z, rep 1: 0.375; Wolbachia per cell robust z, rep 2: 0.232; Wolbachia per cell robust z, rep 3: -1.51

With eIF3g2 [DRSC28960], how do the results read?
Wolbachia per cell robust z, rep 1: -3.66; Wolbachia per cell robust z, rep 2: 0.398; Wolbachia per cell robust z, rep 3: 1.23

How did the screen score Myo61F [DRSC22144]?
Wolbachia per cell robust z, rep 1: -1.51; Wolbachia per cell robust z, rep 2: -1.21; Wolbachia per cell robust z, rep 3: -0.485

What is on record for Myo61F [DRSC27633]?
Wolbachia per cell robust z, rep 1: -2.01 (active); Wolbachia per cell robust z, rep 2: -2.92; Wolbachia per cell robust z, rep 3: -0.407

What did the screen give for cad [DRSC23193]?
Wolbachia per cell robust z, rep 1: 0.336; Wolbachia per cell robust z, rep 2: 0.229; Wolbachia per cell robust z, rep 3: -1.18

How did the screen score cad [DRSC27989]?
Wolbachia per cell robust z, rep 1: 0.388; Wolbachia per cell robust z, rep 2: -0.713; Wolbachia per cell robust z, rep 3: 0.952

2 neighbouring records from above:
eIF3g2 [DRSC14275] → Wolbachia per cell robust z, rep 1: 0.375; Wolbachia per cell robust z, rep 2: 0.232; Wolbachia per cell robust z, rep 3: -1.51
eIF3g2 [DRSC28960] → Wolbachia per cell robust z, rep 1: -3.66; Wolbachia per cell robust z, rep 2: 0.398; Wolbachia per cell robust z, rep 3: 1.23
